The values below come from patent publication US20240360203A1.

Experiment [1] addresses T1, SARS-CoV-2 spike S2 peptide 1143-1162, biotinylated (SARS-CoV-2). Briefly: SPR, Fab over captured biotin-peptide, 25 C. On the technique in general: SPR reads the build-up and loss of mass on a sensor chip optically.
Experiment [2] deals with T1, SARS-CoV-2 spike S2 peptide 1143-1162, …. Nature of the experiment: DELFIA on captured biotin-peptide. More on the design: unit not given beside the values.

B1: Reference Antibody Fab (Fab, V domains shown)
VH: EVQLVESGAEVKKPGESLKISCKGSGYTFTRYWIGWVRQMPGKGLEWMGIIYPGDSDTRYSPSFQGHVTISADKSISTAYLQWNSLKASDTAMYYCARLPQYCSNGVCQRWFDPWGQGTLVTVSS
VL: EIVLTQSPSSVSASVGDRVTITCRASQGISSWLAWYQQKPGKAPKLLIYAASSLQSGVPSRFSGSGSGTDFTLTISSLQPEDFATYYCQQGNSFPYTFGQGTNLEIK
As usually defined, the Kd is a measure of binding affinity in units of concentration. One may read the koff as the rate constant with which the complex falls apart. For orientation: kon means a measure of how fast the partners come together. On to B1, for which, in experiment [1], the Kd was found to be 64.2 nM, the koff came to 0.0306 s⁻¹ and the kon was 477000 M⁻¹ s⁻¹.

B2: Reference Antibody (antibody, V domains shown)
VH: B1 VH
VL: B1 VL
B2 registered an AUC in experiment [2] of 3.25e+06.
